Compound potency records, mixed from different reports. Data source: NIAID ChemDB in PubChem.

Common to all: whole-cell or culture tests; organism: Mycobacterium tuberculosis

An empty or dashed field is not shown.

structure | strain or isolate | read by | conditions | read-out | tested at | result
Cc1ccc(Cn2nnc(-c3cc([N+](=O)[O-])cc([N+](=O)[O-])c3)n2)cc1 | My 331/88 |  | 7 d | MIC |  | 0.125 µM
CN1CCN(CCN2CCN(CCCN3c4ccccc4Sc4ccc(Cl)cc43)CC2)C1=O | H37Rv | BACTEC |  | inhibition | 12.5 µg/mL | 5%
CCOC(=O)c1ccc(-n2c(=O)oc3ccc(F)cc3c2=O)cc1 | CNCTC MY331/88 |  |  | MIC |  | 8 µM
CCCCCCCCCN1C(=O)CC(SCCNC(=O)C(CC)CCCC)C1=O | H37Rv |  |  | MIC |  | ≤20 µg/mL
O=[N+]([O-])c1cn2c(n1)OC[C@@H](OCc1ccc(N3CCN(c4ccc(C(F)(F)F)cn4)CC3)nc1)C2 |  | low oxygen |  | MIC90 |  | 2.5 µM
CC(=O)O[C@@]1(C)C(=O)OC/C2=C/CN(C)CC[C@@H](OC(=O)[C@@](O)([C@H](C)Cl)C[C@H]1C)C2=O.c1ccccc1 | H37Rv | BACTEC |  | MIC |  | ≥12.5 µg/mL
CCCCCCCCCN1C(=O)CC(C)(SCCN)C1=O | H37Rv |  |  | MIC |  | ≤20 µg/mL
CCn1c(SCC(=O)N=Nc2c(O)[nH]c3ccccc23)nc2ccccc2c1=O | H37Rv |  |  | MIC |  | >12.5 µg/mL
CSC(=S)N/N=C/c1ccccc1O | H37Rv | BACTEC |  | MIC bound |  | ≤128 µg/mL
CO[C@H]1/C=C/O[C@@]2(C)Oc3c(C)c(O)c4c(O)c(c(/C=N/N5CCN(C)CC5)c(O)c4c3C2=O)NC(=O)/C(C)=C\C=C\[C@H](C)[C@H](O)[C@@H](C)[C@@H](O)[C@@H](C)[C@H](OC(C)=O)[C@@H]1C | Clinical isolate 1 |  |  | MIC |  | 0.5 µg/mL
Cc1cc(C(=O)O)c2cccc(C(F)(F)F)c2n1 | H37Rv | BACTEC |  | MIC bound |  | >12.5 µg/mL
O=c1oc2ccc(Br)cc2c(=O)n1-c1ccc(Cl)c(Cl)c1 | CNCTC MY331/88 |  |  | MIC |  | 4 µM
COc1ccc2cc1Oc1cc(ccc1OC)CC/C(=N\O)CCCC2 | H37Rv | broth dilution |  | MIC |  | >200 µg/mL
NNC(=O)c1ccncc1 | H37Rv |  |  | MIC |  | 0.05 µg/mL
Cc1ccc2nccc(NC(=S)Nc3ccc(Cl)cc3)c2c1 | Strain 2 (MDR) |  |  | MIC |  | >2 µg/mL
O=C1c2cc(Cl)ccc2OP(=O)(c2ccccc2)N1c1ccc(C(F)(F)F)cc1 | 7357/1998 |  | 21 d | MIC |  | 1 µM
O=c1oc2ccc(Cl)cc2c(=O)n1-c1cccc([N+](=O)[O-])c1 | CNCTC MY331/88 |  |  | MIC |  | 8 µM
Nc1ccc(C(=O)O)c(O)c1 | Clinical isolate 11 |  |  | MIC |  | >100 µg/mL
S=c1nc(-c2ccnc(-c3nc(=S)[nH][nH]3)c2)[nH][nH]1 | H37Rv | BACTEC |  | MIC bound |  | >12.5 µg/mL
O=C1CCCCc2ccc(O)c(c2)Oc2cc(ccc2O)CC1 | H37Rv | broth dilution |  | MIC |  | 200 µg/mL
CCCCCCCCOc1ccccc1NC(=O)OCC[NH+]1CCCC1 | My 331/88 |  |  | MIC |  | 32 µM
CC1S/C(=N\N=C2/C(=O)Nc3ccccc32)N(c2ccc(Cl)cc2)C1=O | H37Rv |  |  | MIC |  | >12.5 µg/mL
CCCCCCCCCN1C(=O)CC(SCCNC(=O)c2ccc(C(C)(C)C)cc2)C1=O | H37Ra |  |  | MIC |  | ≤20 µg/mL
COc1cccc2c(NC(=S)Nc3cccc([N+](=O)[O-])c3)ccnc12 | Strain 1 (MDR) |  |  | MIC |  | 1 µg/mL
CCCCCCCCCCOc1ccccc1NC(=O)OCC[NH+]1CCCC1 | My 331/88 |  |  | MIC |  | 16 µM
COc1cccc2c(NNC(=O)c3ccncc3)cc(-c3ccccc3)nc12 | Strain 1 (MDR) |  |  | MIC |  | 9 µg/mL
O=S(=O)(/N=C1C=C/C(=N\S(=O)(=O)c2ccccc2)c2ccccc2\1)c1ccccc1 | H37Rv | BACTEC |  | inhibition | 12.5 µg/mL | 20%
O=[N+]([O-])c1cn2c(n1)OC[C@@H](OCc1ccc(CNc3ccc(C(F)(F)F)nc3)cc1)C2 |  | low oxygen |  | MIC90 |  | 4.2 µM
COc1ccc2nccc(Nc3ccc(S(=O)(=O)c4ccc(NC(C)=O)cc4)cc3)c2c1 | Strain 2 (MDR) |  |  | MIC |  | 0.8 µg/mL
O=C(Nc1ccc(C(F)(F)F)cc1)c1cc(Cl)ccc1OP(=O)(c1ccccc1)c1ccccc1 | 7357/1998 |  | 14 d | MIC |  | 1 µM
CO[C@H]1/C=C/O[C@@]2(C)Oc3c(C)c(O)c4c(O)c(c(/C=N/N5CCN(C)CC5)c(O)c4c3C2=O)NC(=O)/C(C)=C\C=C\[C@H](C)[C@H](O)[C@@H](C)[C@@H](O)[C@@H](C)[C@H](OC(C)=O)[C@@H]1C | Praha 131 |  |  | MIC |  | >9.7 µM
O=C(CSc1nc2ccc(Cl)cc2c(=O)n1-c1ccccc1)N=Nc1c(O)[nH]c2ccc(Br)cc12 | H37Rv |  |  | EC50 |  | <12 µg/mL
CCCCOc1cccc(NC(=O)OCCN2CCOCC2)c1 | My 331/88 |  |  | MIC |  | 250 µM
C=CCN=C(N=Nc1c(O)[nH]c2ccccc12)SCC(=O)c1ccc(Br)cc1 | H37Rv |  |  | EC50 |  | <12 µg/mL
CCOc1ccc2c(c1)[n+]([O-])c(S(=O)(=O)c1ccc(C)cc1)c(N)[n+]2[O-] | EMB-R |  |  | MIC |  | 12.5 µg/mL
CCCOc1cccc(NC(=O)OCC[NH+]2CCCC2)c1 | My 331/88 |  |  | MIC |  | 500 µM
C=C(C)/C=C/[C@]12C[C@H](C)[C@H]3CC[C@](C)(NC=O)[C@@H](CC[C@H]1C)[C@@H]32 | H37Rv |  |  | inhibition | 16 µg/mL | 30%
COc1ccc(CCCCC(=O)CCc2ccc(OC)c(Br)c2)cc1O | H37Rv | broth dilution |  | MIC |  | >200 µg/mL
O=[N+]([O-])c1cn2c(n1)OC[C@@H](OCc1ccc(Oc3ccc(C(F)(F)F)nc3)nc1)C2 |  | resazurin |  | MIC90 |  | 0.12 µM
NC(=S)NNC(=O)c1ccncc1 | Strain 1 (MDR) |  |  | MIC |  | 1 µg/mL
O=C(Nc1ccc(Cl)c(Cl)c1)c1cc(Cl)ccc1OP(=O)(Oc1ccccc1)Oc1ccccc1 | My 331/88 |  | 14 d | MIC |  | 2 µM
CCOC(=O)c1nc2cc(F)c(F)cc2nc1NCc1cc(OC)c(OC)c(OC)c1 | H37Rv | BACTEC |  | MIC bound |  | >6.25 µg/mL
CCCCCCCCCN1C(=O)CC(NCCN(CCCC)CCCC)C1=O | H37Rv |  |  | MIC |  | ≤20 µg/mL
COCOc1ccc(/C=C/C(=O)CCCCc2ccc(OC)c(O)c2)cc1Br | H37Rv | broth dilution |  | MIC |  | >200 µg/mL
CC(=O)Nc1c(Cl)c(Cl)c2[nH]c(=O)c3cc(Cl)ccc3c2c1Cl | H37Rv | BACTEC |  | inhibition | 12.5 µg/mL | 25%
CCCCCOc1ccc(NC(=O)OCCN(C)C)cc1 | My 331/88 |  |  | MIC |  | 32 µM
CCCCCCCCCN1C(=O)CC(SCCN)C1=O | Clinical isolate (isoniazid-resistant) |  |  | MIC |  | ≤20 µg/mL
CCCCOc1cccc(NC(=O)OCCN2CCCCCC2)c1 | My 331/88 |  |  | MIC |  | 16 µM
O=C1NOCC1N=Cc1cc(Cl)ccc1O | H37Rv | BACTEC |  | inhibition | 12.5 µg/mL | 95%
O=S(=O)(Nc1ccnn1-c1ccccc1)c1ccc(Nc2ccnc3ccc(Cl)cc23)cc1 | Strain 1 (MDR) |  |  | MIC |  | 4 µg/mL
O=[N+]([O-])c1cn2c(n1)OC[C@@H](OCc1ccc(N3CCC(Oc4ccc(C(F)(F)F)nc4)CC3)cc1)C2 |  | resazurin |  | MIC90 |  | 0.095 µM
COc1cc(CCCCC(=O)/C=C/c2ccc(OC)c(Br)c2)ccc1O | H37Rv | broth dilution |  | MIC |  | >200 µg/mL
C[C@@H]1CCC2(NC1)O[C@H]1C[C@H]3[C@@H]4CC=C5C[C@@H](O[C@@H]6O[C@@H](CO)[C@H](O[C@@H]7O[C@H](C)[C@@H](O)[C@H](O)[C@H]7O)[C@@H](O)[C@H]6O)CC[C@]5(C)[C@H]4CC[C@]3(C)[C@H]1[C@@H]2C | H37Rv | BACTEC |  | inhibition | 12.5 µg/mL | 0%
O=c1oc2cc(Cl)ccc2c(=O)n1-c1ccc(Cl)c(Cl)c1 | CNCTC MY331/88 |  |  | MIC |  | 4 µM
O=C1c2cc(Br)ccc2OP(=O)(c2ccccc2)N1c1ccc(C(F)(F)F)cc1 | Praha 131 |  | 14 d | MIC |  | 1 µM
O=[N+]([O-])c1cn2c(n1)OC[C@@H](OCc1ccc(-c3ccc(Oc4ccc(OC(F)(F)F)cc4)cc3)cc1)C2 |  | low oxygen |  | MIC90 |  | 1 µM
CCCCCCCCNC1(C)CC(=O)N(CCCCCCCC)C1=O | Clinical isolate (isoniazid-resistant) |  |  | MIC |  | ≤20 µg/mL
CCCCCCOc1ccc(NC(=O)OCCN2CCOCC2)cc1 | My 331/88 |  |  | MIC |  | 32 µM
O=[N+]([O-])c1cn2c(n1)OC[C@@H](OCc1ccc(Oc3ccc(F)cc3)cc1)C2 |  | resazurin |  | MIC90 |  | 0.045 µM
CCn1cc(C(=O)O)c(=O)c2cc(F)c(-n3cccc3)cc21 | H37Rv | resazurin |  | MIC bound |  | >6.25 µg/mL
O=[N+]([O-])c1cc(-c2nnn(Cc3cc(F)cc(F)c3)n2)cc([N+](=O)[O-])c1 | My 331/88 |  | 14 d | MIC |  | 0.5 µM
C[C@H]1COc2c(N3CCN(C)CC3)c(F)cc3c(=O)c(C(=O)O)cn1c23 | H37RV (DRUG-SUS) |  |  | MBC |  | 2 µg/mL
CO/N=C1/CCCCc2ccc(OC)c(c2)Oc2cc(ccc2OC)CC1 | H37Rv | broth dilution |  | MIC |  | >200 µg/mL
CCn1cc(C(=O)O)c(=O)c2cc(F)c(N3CCN(Cn4c(O)c(N=NC(=O)c5ccncc5)c5cc(Cl)ccc54)CC3)cc21 | H37Rv | resazurin |  | inhibition | 6.25 µg/mL | 97%
O=C(CSc1nc2ccc(Cl)cc2c(=O)n1-c1ccccc1)N=Nc1c(O)[nH]c2ccccc12 | H37Rv |  |  | EC50 |  | <12 µg/mL
O=C(Nc1ccc(Cl)cc1)c1cc(Cl)ccc1OP(=O)(Oc1ccccc1)Oc1ccccc1 | My 331/88 |  | 14 d | MIC |  | 4 µM
O=C(COc1ccccc1)N=Nc1c(O)n(CN2CCOCC2)c2ccccc12 | H37Rv |  |  | MIC |  | >12.5 µg/mL
CSC(=S)N/N=C/c1cccc(C)n1 | CS-R |  |  | MIC |  | >12.8 µg/mL
O=[N+]([O-])c1cn2c(n1)OC[C@@H](OCc1ccc(C#Cc3ccc(C(F)(F)F)cn3)nc1)C2 |  | low oxygen |  | MIC90 |  | 2.7 µM
CCCCCCCCCN1C(=O)C=CC1=O | Clinical isolate (isoniazid-resistant) |  |  | MIC |  | ≤20 µg/mL
CC1CC(NC(=S)S)CC(C)(C)C1 | H37Rv | BACTEC |  | MIC |  | ≥12.5 µg/mL
O=C(Nc1ccc(C(F)(F)F)cc1)c1cc(Cl)ccc1OP(=O)(Oc1ccccc1)Oc1ccccc1 | My 331/88 |  | 7 d | MIC |  | 2 µM
CN(Cc1ccc(CO[C@@H]2COc3nc([N+](=O)[O-])cn3C2)cc1)c1ccc(OC(F)(F)F)cc1 |  | low oxygen |  | MIC90 |  | 0.45 µM
CCCCc1c(O)c(N=NC(N)=S)c2ccccc2c1O | H37Rv | BACTEC |  | MIC bound |  | >12.5 µg/mL
CC(=O)Oc1ccccc1C(=O)Nc1ncc([N+](=O)[O-])s1 | T spoligotype 51 | visual reading |  | MIC |  | 20 µg/mL
Cc1nnc(NS(=O)(=O)c2ccc(N=Nc3c(N)nc(N)[nH]c3=O)cc2)s1 | H37Rv | BACTEC |  | MIC bound |  | >12.5 µg/mL
CCCCCCCCN1C(=O)CC(C)C1=O | H37Ra |  |  | MIC |  | ≤20 µg/mL
CC1NOC(NS(=O)(=O)c2ccc(N=Nc3cc4ccccc4c(C(=O)O)c3O)cc2)C1C | H37Rv | BACTEC |  | MIC bound |  | >12.5 µg/mL
CCCCCCCOc1cccc(NC(=O)OCCN2CCOCC2)c1 | My 331/88 |  |  | MIC |  | 8 µM
COC(=O)c1nc2[nH]n(-c3ccccc3)c(=O)c2c(C(=O)OC)c1C(C)C(=O)c1ccccc1 | H37Rv | BACTEC |  | MIC |  | ≥12.5 µg/mL
C=C1CC(=O)N(CCCCCCCC)C1=O | H37Ra |  |  | MIC |  | ≤20 µg/mL
Cc1ccc(C)n1-c1ccsc1C(=O)NNC(=O)CCl | H37Rv | BACTEC |  | inhibition | 12.5 µg/mL | 5%
CC(=O)Nc1ccc(S(=O)(=O)c2ccc(Nc3ccnc4ccc(Cl)cc34)cc2)cc1 | Strain 1 (MDR) |  |  | MIC |  | 1 µg/mL

The last 6 rows once more:

structure | strain or isolate | read by | conditions | read-out | tested at | result
CC1NOC(NS(=O)(=O)c2ccc(N=Nc3cc4ccccc4c(C(=O)O)c3O)cc2)C1C | H37Rv | BACTEC |  | MIC bound |  | >12.5 µg/mL
CCCCCCCOc1cccc(NC(=O)OCCN2CCOCC2)c1 | My 331/88 |  |  | MIC |  | 8 µM
COC(=O)c1nc2[nH]n(-c3ccccc3)c(=O)c2c(C(=O)OC)c1C(C)C(=O)c1ccccc1 | H37Rv | BACTEC |  | MIC |  | ≥12.5 µg/mL
C=C1CC(=O)N(CCCCCCCC)C1=O | H37Ra |  |  | MIC |  | ≤20 µg/mL
Cc1ccc(C)n1-c1ccsc1C(=O)NNC(=O)CCl | H37Rv | BACTEC |  | inhibition | 12.5 µg/mL | 5%
CC(=O)Nc1ccc(S(=O)(=O)c2ccc(Nc3ccnc4ccc(Cl)cc34)cc2)cc1 | Strain 1 (MDR) |  |  | MIC |  | 1 µg/mL

MIC bound: limit read from a one-dose screen. Rows are shuffled and stem from different studies. Percent inhibition refers to the dose given; in toxicity tests it is the harm to the cells. MIC50, MIC90 and the like: level of inhibition, or share of isolates inhibited. ECn: concentration that inhibits the pathogen or its effect by n%.